Protein sequences can lack the tags named with them. Construct, isoform or probe ends are uncertain for at least one entry.
System: T1, LysRNtHis6 (Nocardia terpenica IFM 0406)
T1 sequence (looked up): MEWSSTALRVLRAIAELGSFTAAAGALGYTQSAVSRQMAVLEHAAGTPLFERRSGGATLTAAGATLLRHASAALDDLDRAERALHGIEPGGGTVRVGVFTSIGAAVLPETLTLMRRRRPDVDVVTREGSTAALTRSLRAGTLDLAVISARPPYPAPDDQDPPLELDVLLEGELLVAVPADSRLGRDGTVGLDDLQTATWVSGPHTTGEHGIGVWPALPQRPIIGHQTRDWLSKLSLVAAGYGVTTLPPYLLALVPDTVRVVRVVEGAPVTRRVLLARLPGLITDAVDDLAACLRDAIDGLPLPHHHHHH
Experiment: EMSA
Conditions: 1x PBS ([…], BSA, glycerol, recombinant protein, probe letters rebuilt from the primers and the genome

Sequence | binding result (200-1000 nM, protein details: C-terminal His6, label: Cy5 (primer pTZCy5), part of a longer molecule) | binding result (50-500 nM, nearly all DNA bound at 500 nM, highest affinity of tested, protein details: C-terminal His6, label: 32P)
GGTCGCAGGCATCGATGACCCCTCCTGGCCGCAACGGGAAGCCGACGGCTGCCATGGTATGTCGCGGATCCGAATCGCGCAGCCCAACGAGCGGATAAATTTAGGATAAACAATGCTTCCGGACAATAATTTCTGGATAACATCGAAACCGGTCATATTGCCCGTGATCGGTTTTCCGTGGGATGATCCCGGCATACATTCGGTACGGGGTGGAGGTCGGACGGTCCGGCAATTCTGTCGATCATGAATTGGTGAGTTTCCTCTAGAATATCACGGCGAAACCGGCGGTTGATAGCGGAGGGTCCGGTGATGGTGAATTCCGGAGAATGGGTCGACGACCCCGACTTGTCCATGAACACCGTGGCATTTCGCCCGGATCGGCAGCTGGTGGCGAGGGCGGCGG (double strand) [ΔM2_bra0-1p] | binds | –
GGTCGCAGGCATCGATGACCCCTCCTGGCCGCAACGGGAAGCCGACGGCTGCCATGGTATGTCGCGGATCCGAATCGCGCAGCCCAACGAGCGGATAAATTTAGGATAAACAATGCTTCCGGACAATAATTTCTGGATAACATCGAAACCGGTCATATTGCCCGTGATCGGTTTTCCGTGGGATGATCCCGGCATACATTCGGTACGGGGTGGAGGTCGGACGGTCCGGCAATTCTGTCGATCATGAATTGGTGAGTTTTTCCGGTGGCGTCACGGCGAAACCGGCGGTTGATAGCGGAGGGTCCGGTGATGGTGAATTCCGGAGAATGGGTCGACGACCCCGACTTGTCCATGAACACCGTGGCATTTCGCCCGGATCGGCAGCTGGTGGCGAGGGCGGCGG (double strand) [bra0-1p] | – | binds

Reference: paper PMC7837296, “A novel LysR‐type regulator negatively affects biosynthesis of the immunosuppressant brasilicardin” (Engineering in Life Sciences, 2020)
